Data set [1] has as its system VarR (Vibrio cholerae O1 biovar El Tor N16961). In words: EMSA. To be noted: 50 mM Tris-HCl pH 7.5, 5 mM EDTA, 1 mM DTT, 100 ug/ml BSA, 5% glycerol, on ice 10 min, 4% polyacrylamide gel, recombinant protein, protein details: His6 (pQE-100, N-terminal). (A gel shift assay detects complexes by their altered migration in electrophoresis.)
Data set [2] shares this test system. Put plainly: competition with a labelled probe. To be noted: 50 mM Tris-HCl pH 7.5, 5 mM EDTA, 1 mM DTT, 100 ug/ml BSA, 5% glycerol, on ice 10 min, 4% polyacrylamide gel, recombinant protein, protein details: His6 (pQE-100, N-terminal), label: 32P.
The next data set has as its target MtrR (UniProt P39897). In words: EMSA. The following applies: 200 ng MtrR, positive control; 50 mM Tris-HCl pH 7.5, 5 mM EDTA, 1 mM DTT, 100 ug/ml BSA, 5% glycerol, on ice 10 min; 4% polyacrylamide gel; recombinant …; label: 32P.

Protein sequences, listed by entry. Tags and fused reporters are not part of them. Lines headed by an entry give the natural chain unless they say otherwise; changes in a name come on top.
UniProt P39897: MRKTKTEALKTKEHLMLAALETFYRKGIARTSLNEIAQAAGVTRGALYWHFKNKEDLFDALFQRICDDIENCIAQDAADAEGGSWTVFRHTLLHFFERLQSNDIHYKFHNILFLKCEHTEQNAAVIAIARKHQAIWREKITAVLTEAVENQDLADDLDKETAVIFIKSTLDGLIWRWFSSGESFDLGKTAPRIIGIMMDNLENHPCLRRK

The exact form of at least one protein or probe is not confirmed. For part of these data: At least one verdict rests on a figure or table, not on a statement of the authors.

On to “GATATGATTGATCACTAATTAGACGACCTT / AAGGTCGTCTAATTAGTGATGAATCATATC [varGA1 (30 bp)]”, for which the binding result in data set [1] (50 ng VarR, label: 32P) is on record as “binds”; in data set [2] (unlabelled varGA1 displaces labelled varGA1), “binds”.

On to “TATACATACTATAACAAGCATGCATTTTTGAT (double strand) [2nd 32 bp varR-varG IR]”, for which, in data set [1] (50 and 200 ng VarR, label: 32P on strand 1), the binding result was “binds”.

As for “ATAACAGCATGCTGGGAGGCCAGCA (double strand) [25 bp varB-varC IR]”, the binding result in data set [1] (0-400 ng VarR, label: 32P) is reported as “binds”; in data set [2] (unlabelled N24 displaces labelled N24), “binds”.

For the sequence “TTTTTATCCGTGCAATCGTGTATGTATAATG (double strand) [VarPC / Mtr1 (31 bp)]”, the binding result in the data set with MtrR was “binds”.

Values taken from PMC5595328.
